Test results from PMC10883919.

Tests used:
[1] = biological target: P~TcrX (phosphorylated TcrX) (Mycobacterium tuberculosis H37Rv) (UniProt O69730); experiment: competition with a labelled probe; conditions: recombinant protein; residues 1-234; probe letters rebuilt from the primers and the genome
[2] = biological target: T1, TcrX (Mycobacterium tuberculosis H37Rv) (UniProt O69730); experiment: EMSA; conditions: unphosphorylated, weaker than P~TcrX; recombinant protein; residues 1-234; probe letters rebuilt from the primers and the genome
T1 sequence (looked up): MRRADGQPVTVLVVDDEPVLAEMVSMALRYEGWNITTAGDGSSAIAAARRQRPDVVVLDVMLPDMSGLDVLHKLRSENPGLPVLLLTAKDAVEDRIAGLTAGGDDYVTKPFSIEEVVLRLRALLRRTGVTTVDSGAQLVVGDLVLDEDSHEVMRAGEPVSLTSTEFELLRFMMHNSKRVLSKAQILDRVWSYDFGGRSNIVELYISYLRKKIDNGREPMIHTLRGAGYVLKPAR

[3] = biological target: P~TcrX (phosphorylated TcrX) (Mycobacterium tuberculosis H37Rv) (UniProt O69730); experiment: EMSA; conditions: recombinant protein; residues 1-234; probe letters rebuilt from the primers and the genome

Measured: binding result

TACGACACGCTCAACCGAGATGCGGTGCTGCGTCACAGCGTCAAGTATCCGCACACGGCTGAGCAGACGCCATGCGGATCCTATGTGCGCGCTATGAAACCCGATTTG (double strand) [PtcrXY]
binds: all assays above

The exact form of at least one protein or probe is not confirmed. For part of these data: At least one verdict was read from the data and is not stated in words by the source. For part of these data: Protein sequences can lack the tags named with them.
